Measured values from several laboratories, pooled; numbers as filed in NIAID ChemDB.

CCn is the concentration with n% toxicity to the cells. ECn is the concentration giving n% inhibition of infection, replication or growth. An empty or dashed field is not shown. ICn is the concentration giving n% inhibition. Rows are shuffled and stem from different studies.

SMILES | cell line | kind | strain | organism | read-out | target | result
Nc1ncnc2c1ncn2CCOCP(=O)(O)O | PHK | toxicity | - | - | CC50 | - | 12.3 µg/mL
O=C(N[C@@H](Cc1c[nH]c2ccc(O)cc12)c1ccccn1)c1ccc2c(c1)nc(-c1ccoc1)n2C1CCCCC1 | - | target | - | Poliovirus | IC50 | RNA-dependent RNA polymerase | >25 µM
Nc1ccn(C[C@@H](CO)OCP(=O)(O)O)c(=O)n1 | VERO 76 | culture | Zaire strain wild-type | Monkeypox virus | EC50 | - | 27 µM
N#Cc1ccc(-c2nc3cc(C(=O)O)ccc3n2C2CCCCC2)cc1 | - | target | - | Poliovirus | IC50 | RNA-dependent RNA polymerase | >25 µM
NC(=O)c1nc(F)c[nH]c1=O | MDCK | culture | H2N2 JAPAN/305/57 | Influenza A virus | EC50 | - | 0.3 µg/mL
O=C(N[C@@H](Cc1c[nH]c2ccc(NS(=O)(=O)C(F)(F)F)cc12)C(=O)O)c1ccc2c(c1)nc(-c1ccoc1)n2C1CCCCC1 | - | target | - | Poliovirus | IC50 | RNA-dependent RNA polymerase | >25 µM
O=c1cnn([C@@H]2O[C@H](CO)[C@@H](O)[C@H]2O)c(=O)[nH]1 | VERO | culture | FNV | Yellow fever virus | EC90 | - | 0.9 µg/mL
CC(=O)Nc1ccc(C(=O)O)cc1N | - | target | N2 (A/TOKYO/67) | Influenza A virus | IC50 | Neuraminidase | >10000 µM
COc1c(C)c2c(c(O)c1C/C=C(\C)CCC(=O)O)C(=O)OC2 | 3T3 | culture | - | Monkeypox virus | EC50 | - | 0.2 µM
Cn1c(O)c(N=NC(N)=S)c2ccccc21 | BSC | culture | - | Monkeypox virus | EC50 | - | 141 µM
NC(=O)c1ncn([C@@H]2O[C@H](CO)[C@@H](O)[C@H]2O)n1 | VERO 76 | culture | Somalia wild type | Camelpox virus | EC50 | - | 290 µM
CC(=O)NC(C(=O)N1CCCCC1)[C@H]1CC(C(=O)O)C[C@@H]1N=C(N)N | - | target | - | Influenza A virus (H6N2) | IC50 | Neuraminidase | 0.15 µM
O=C(N[C@H](CO)c1ccccc1)c1ccc2c(c1)nc(-c1ccoc1)n2C1CCCCC1 | - | target | - | Poliovirus | IC50 | RNA-dependent RNA polymerase | >25 µM
NC(=O)c1csc([C@@H]2O[C@H](CO)[C@@H](O)[C@H]2O)n1 | VERO | culture | HBL7990 | Hantaan virus | EC50 | - | 1.5 µg/mL
CN(C)c1nc(N)nc2c1ncn2CCOCP(=O)(O)O | PHK | toxicity | - | - | CC50 | - | 1.5 µg/mL
O=C(N[C@@H](Cc1c[nH]c2ccc(O)cc12)C(=O)O)c1ccc2c(c1)nc(-c1cccc3c1OCO3)n2C1CCCCC1 | - | target | - | Poliovirus | IC50 | RNA-dependent RNA polymerase | >25 µM
Nc1nc(NC2CC2)c2ncn(CCCOCP(=O)(O)O)c2n1 | PHK | toxicity | - | - | CC50 | - | 15.9 µg/mL
O=C(N[C@H](C(=O)O)c1c[nH]c2ccc(O)cc12)c1ccc2c(c1)nc(-c1ccc(C(F)(F)F)cc1)n2C1CCCCC1 | - | target | - | Poliovirus | IC50 | RNA-dependent RNA polymerase | >25 µM
Nc1nc2c(ncn2CCOCP(=O)(O)O)c(=O)[nH]1 | PHK | toxicity | - | - | CC50 | - | 0.1 µg/mL
Nc1ccn(C[C@@H](CO)OCP(=O)(O)O)c(=O)n1 | VERO | culture | - | Monkeypox virus | EC50 | - | 78 µM
CCC(COC)NC(=O)C(NC(C)=O)[C@H]1CC(C(=O)O)C[C@@H]1N=C(N)N | - | target | - | Influenza A virus (H6N2) | IC50 | Neuraminidase | 2.2 µM
COc1c(C)c2c(c(O)c1C/C=C(\C)CCC(=O)O)C(=O)OC2 | VERO 76 | culture | Zaire strain wild-type | Monkeypox virus | EC50 | - | 2.5 µM
O=C(O)COc1ccc2c(c1)c(C[C@H](NC(=O)c1ccc3c(c1)nc(-c1ccoc1)n3C1CCCCC1)C(=O)O)cn2CC(=O)O | - | target | - | Poliovirus | IC50 | RNA-dependent RNA polymerase | >25 µM
CC(=O)NC(C(=O)N1CCC1)[C@H]1CC(C(=O)O)C[C@@H]1N=C(N)N | - | target | - | Influenza A virus (H6N2) | IC50 | Neuraminidase | 0.92 µM
Nc1nc(NC2CC2)c2ncn(CCOCP(=O)(O)O)c2n1 | PHK | toxicity | - | - | CC50 | - | 1.3 µg/mL
Nc1ccn(C[C@H]2COP(=O)(O)CO2)c(=O)n1 | VERO 76 | culture | - | Cowpox virus | EC50 | - | 158 µM
O=C(N[C@@H](Cc1c[nH]c2ccc(O)cc12)C(=O)O)c1ccc2c(c1)nc(-c1ccoc1)n2C1CCCC[C@H]1CCc1ccccc1 | - | target | - | Poliovirus | IC50 | RNA-dependent RNA polymerase | >25 µM
CC(=O)NC(C(=O)NC(C)CCc1ccccc1)[C@H]1CC(C(=O)O)C[C@@H]1N=C(N)N | - | target | - | Influenza A virus (H6N2) | IC50 | Neuraminidase | 0.23 µM
CC(C)=Cc1nc2cc(C(=O)O)ccc2n1C1CCCCC1 | - | target | - | Poliovirus | IC50 | RNA-dependent RNA polymerase | >25 µM
CCCCCCN(C)C(=O)C(NC(C)=O)[C@H]1CC(C(=O)O)C[C@@H]1N=C(N)N | - | target | - | Influenza A virus (H6N2) | IC50 | Neuraminidase | 12.4 µM
O=C(N[C@@H](Cc1c[nH]c2ccc(O)cc12)C(=O)O)c1ccc2c(c1)nc(-c1ccsc1)n2C1CCCCC1 | - | target | - | Poliovirus | IC50 | RNA-dependent RNA polymerase | >25 µM
CC(=O)NC(C(=O)NC(C)C)[C@H]1CC(C(=O)O)C[C@@H]1N=C(N)N | - | target | - | Influenza A virus (H6N2) | IC50 | Neuraminidase | 1.34 µM
NC(=O)c1c[se]c([C@@H]2O[C@H](CO)[C@@H](O)[C@H]2O)n1 | VERO E6 | culture | HVL7990 | Hantaan virus | EC50 | - | 1.3 µg/mL
COC(=O)[C@H](Cc1cn(C)c2ccc(OC(C)(C)C(=O)O)cc12)NC(=O)c1ccc2c(c1)nc(-c1ccoc1)n2C1CCCCC1 | - | target | - | Poliovirus | IC50 | RNA-dependent RNA polymerase | >25 µM

A second listing of 4 rows from above:

SMILES	cell line	kind	strain	organism	read-out	target	result
NC(=O)c1nc(F)c[nH]c1=O	MDCK	culture	H2N2 JAPAN/305/57	Influenza A virus	EC50	-	0.3 µg/mL
Nc1ccn(C[C@@H](CO)OCP(=O)(O)O)c(=O)n1	VERO 76	culture	Zaire strain wild-type	Monkeypox virus	EC50	-	27 µM
O=C(N[C@@H](Cc1c[nH]c2ccc(O)cc12)c1ccccn1)c1ccc2c(c1)nc(-c1ccoc1)n2C1CCCCC1	-	target	-	Poliovirus	IC50	RNA-dependent RNA polymerase	>25 µM
COc1c(C)c2c(c(O)c1C/C=C(\C)CCC(=O)O)C(=O)OC2	VERO 76	culture	Zaire strain wild-type	Monkeypox virus	EC50	-	2.5 µM